Measured data: PubChem BioAssay AID1259414 (Drosophila RNAi Screening Center, 2018)

- Assay: 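Host factors increasing or decreasing Wolbachia levels in cultured fly cells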 (primary screen)
- System: Drosophila JW18 cells infected with Wolbachia
- Reagent: long dsRNA against Drosophila genes, 0.25 µg dsRNA per well of a 384-well plate
- Time to read-out: 5 days
- Conditions: cells persistently infected with Wolbachia before knock-down; no added drug
- Read-out: 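Imaged fluorescence in situ signal for Wolbachia 23S rRNA per DAPI-counted host cell, given as a robust z-score within each plate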
- Reading the numbers: Wolbachia per cell robust z: higher = more Wolbachia per host cell than the plate typical
- Hit rule: 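Active if absolute robust z reaches 1.5 in two or more of three replicates, leaving out multi- or no-target dsRNAs, genes unexpressed in JW18 and A1 wells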
The screen tested about 24,000 reagents; below is a random part of those with a known target gene and a result. Over the whole deposit, about 1,210 (5%) were called active. 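Inactive calls also include excluded dsRNAs with several or no targets, genes unexpressed in JW18, and well A1, regardless of score.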 The numbers tell different reagents against one gene apart. A plus sign joins genes that one reagent is predicted to hit.

The first 3 entries as a preview:
| target gene | reagent | Wolbachia per cell robust z, rep 1 | Wolbachia per cell robust z, rep 2 | Wolbachia per cell robust z, rep 3 | Call |
| --- | --- | --- | --- | --- | --- |
| CG34174 + daed | 1 | -1.25 | -1.87 | 0.0746 | inactive |
| Sc2 (GeneID 38457) | 1 | 0.482 | -0.0783 | -1.3 | inactive |
| Sc2 (GeneID 38457) | 2 | 0.0492 | -0.833 | -0.369 | inactive |

The list itself, repeating the preview:
| target gene | reagent | Wolbachia per cell robust z, rep 1 | Wolbachia per cell robust z, rep 2 | Wolbachia per cell robust z, rep 3 | Call |
| --- | --- | --- | --- | --- | --- |
| CG34174 + daed | 1 | -1.25 | -1.87 | 0.0746 | inactive |
| Sc2 (GeneID 38457) | 1 | 0.482 | -0.0783 | -1.3 | inactive |
| Sc2 (GeneID 38457) | 2 | 0.0492 | -0.833 | -0.369 | inactive |
| CG12589 (GeneID 50157) | 1 | -0.215 | 0.283 | 0.326 | inactive |
| CG10137 (GeneID 35241) | 1 | 0.276 | -0.993 | -1.45 | inactive |
| CG10137 (GeneID 35241) | 2 | -1.3 | -0.46 | -1.36 | inactive |
| CG10137 (GeneID 35241) | 3 | -1.32 | -0.00251 | 0.221 | inactive |
| Tbca (GeneID 43737) | 1 | 0.699 | 1.48 | 0.656 | inactive |
| Tbca (GeneID 43737) | 2 | -1.86 | -0.722 | -0.888 | inactive |
| tsh (GeneID 35430) | 1 | 0.924 | 0.649 | 1.04 | inactive |
| CG15459 (GeneID 33036) | 1 | 0.304 | -6.37 | -2.28 | inactive |
| CG15459 (GeneID 33036) | 2 | 0.391 | 0.488 | 1.22 | inactive |
| CG15459 (GeneID 33036) | 3 | 0.0577 | -0.217 | 0.546 | inactive |
| Wnt2 (GeneID 35975) | 1 | -0.00486 | 1.07 | 1.54 | inactive |
| Wnt2 (GeneID 35975) | 2 | 0.0846 | -0.325 | 1.11 | inactive |
| Acsx3 (GeneID 42354) | 1 | -0.0743 | 0.373 | 1.07 | inactive |
| beat-IIIc (GeneID 35037) | 1 | 0.138 | 0.554 | 0.37 | inactive |
| beat-IIIc (GeneID 35037) | 2 | -2.37 | -0.677 | 0.308 | inactive |
| CG14879 (GeneID 41982) | 1 | 0.77 | 0.534 | 0.482 | inactive |
| CG14879 (GeneID 41982) | 2 | 0.32 | 1.06 | 1.35 | inactive |
| Prx6b + Prx6c + CG12896 | 1 | 0.398 | 0.356 | 0.381 | inactive |
| CG33454 (GeneID 2768850) | 1 | 0.53 | 0.6 | 0.413 | inactive |
| CG33454 (GeneID 2768850) | 2 | -5.8 | -0.36 | -1.4 | inactive |
| ver (GeneID 39432) | 1 | -0.0739 | -2.42 | -0.305 | inactive |
| ver (GeneID 39432) | 2 | 0.485 | -0.819 | 0.539 | inactive |
| CCT4 (GeneID 34674) | 1 | 1.38 | 0.147 | 1.25 | inactive |
| CCT4 (GeneID 34674) | 2 | 0.963 | 0.973 | 0.952 | inactive |
| CG6094 (GeneID 34446) | 1 | 0.219 | -0.103 | 0.253 | inactive |
| CG6094 (GeneID 34446) | 2 | 0.486 | 0.652 | -0.997 | inactive |
| CG6094 (GeneID 34446) | 3 | -0.974 | -0.858 | -0.0324 | inactive |
| lncRNA:CR43199 (GeneID 19835479) | 1 | 0.452 | 0.989 | 0.906 | inactive |
| CG17683 (GeneID 3355011) | 1 | -0.287 | -0.733 | 0.329 | inactive |
| CG17683 (GeneID 3355011) | 2 | -3.14 | 0.831 | -0.00259 | inactive |
| CG43188 (GeneID 12798403) | 1 | 0.379 | 0.238 | 0.986 | inactive |
| CG15916 (GeneID 32549) | 1 | 0.301 | -2.45 | 0.198 | inactive |
| CG18563 (GeneID 35050) | 1 | -1.63 | -2.96 | -0.154 | inactive |
| CG6972 (GeneID 42684) | 1 | 0.47 | -0.376 | 1.15 | inactive |
| CG6972 (GeneID 42684) | 2 | -0.427 | -0.266 | -0.98 | inactive |
| CG6962 (GeneID 41436) | 1 | 0.559 | 0.0703 | 0.673 | inactive |
| CG6962 (GeneID 41436) | 2 | 0.4 | 0.371 | 0.553 | inactive |
| dmGlut (GeneID 47253) | 1 | -3.46 | -0.0995 | -11.5 | active |
| dmGlut (GeneID 47253) | 2 | -0.557 | -0.313 | -1.89 | inactive |
| Mnt (GeneID 31331) | 1 | 0.458 | 0.621 | -0.371 | inactive |
| Mnt (GeneID 31331) | 2 | 1.25 | -3.31 | 1.27 | inactive |
| CG8072 (GeneID 39181) | 1 | 0.674 | -0.0849 | -0.0181 | inactive |
| kn (GeneID 45318) | 1 | -0.301 | -0.727 | 0.355 | inactive |
| kn (GeneID 45318) | 2 | 0.199 | -0.256 | 0.0236 | inactive |
| kn (GeneID 45318) | 3 | -0.501 | -1.34 | -0.959 | inactive |
| kn (GeneID 45318) | 4 | -0.459 | 0.346 | 0.0262 | inactive |
| eIF3b (GeneID 36981) | 1 | 2.23 | 1.34 | 1.04 | inactive |
| Dlish (GeneID 37014) | 1 | -0.421 | -1.19 | 0.209 | inactive |
| norpA (GeneID 31376) | 1 | -0.73 | -0.712 | 1.03 | inactive |
| norpA (GeneID 31376) | 2 | -1.75 | 0.897 | 0.516 | inactive |
| Nup160 (GeneID 34549) | 1 | 0.243 | -0.892 | -0.0778 | inactive |
| Cyp4d2 (GeneID 31192) | 1 | 0.48 | -0.923 | 0.345 | inactive |
| c12.2 (GeneID 53434) | 1 | -0.326 | 0.76 | 0.74 | inactive |
| c12.2 (GeneID 53434) | 2 | 1.6 | 1.44 | 0.449 | inactive |
| Vav (GeneID 32920) | 1 | -5.38 | 0.0132 | 0.477 | inactive |
| Vav (GeneID 32920) | 2 | 0.242 | -1.16 | -2.06 | inactive |
| Prosalpha1 + Prosalpha1R | 1 | -0.0457 | 1.83 | 2.19 | inactive |
| Prosalpha1 + Prosalpha1R | 2 | 0.424 | 0.0806 | 1.07 | inactive |
| hpRNA:CR33940 (GeneID 3771790) | 1 | -0.737 | 0.618 | 1.17 | inactive |
| Pef (GeneID 36111) | 1 | 0.419 | -0.114 | 0.441 | inactive |
| CG34185 (GeneID 5740242) | 1 | 1.1 | 0.378 | -3.8 | inactive |
| ssp6 (GeneID 38694) | 1 | 0.102 | -0.177 | -2.44 | inactive |
| ssp6 (GeneID 38694) | 2 | 0.556 | 0.0511 | 0.281 | inactive |
| ssp6 (GeneID 38694) | 3 | 0.446 | 1.7 | 0.462 | inactive |
| CG11590 (GeneID 32368) | 1 | -3.02 | -0.445 | 0.775 | inactive |
| CG11590 (GeneID 32368) | 2 | -1.11 | -0.457 | -1.07 | inactive |
